Data source: PubChem BioAssay AID624099 (ICCB-Longwood, 2012)
In all, the deposit lists about 21,000 reagents; below is a part drawn at random. Over the whole deposit, 497 (2.4%) are marked active. 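Higher z means weaker E2 silencing; only reporter increases were scored, and knock-downs that hurt cell survival may mask genuine repressor factors.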

- Assay: 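Host factors E2 relies on to silence an HPV18 LCR reporter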 (primary screen)
- System: human C33A cervical carcinoma cells (HPV-negative) stably expressing BPV1 E2 and an HPV18 LCR luciferase reporter
- Reagent: siRNA pool against human genes, 40 nM
- Duration: 72 h
- Measured: 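Per-well luciferase luminescence, z-scored on each plate against the plate mean and SD with control wells left out, then averaged across three replicate plates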
- Reading the numbers: mean z-score and z-score: higher = stronger reporter signal, weaker E2 silencing
- Hit rule: 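Mean z ≥ 2 together with z ≥ 2 in two or more of the three replicates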

| gene symbol | mean z-score | z-score, replicate A | z-score, replicate B | z-score, replicate C | Outcome |
| --- | --- | --- | --- | --- | --- |
| MRPS5 (GeneID 64969) | -1 | -0.67 | -1.11 | -1.21 | inactive |
| ITGBL1 (GeneID 9358) | -0.22 | -0.39 | -0.41 | 0.14 | inactive |
| SDR16C5 (GeneID 195814) | -1.64 | -1.91 | -1.29 | -1.7 | inactive |
| RCC1L (GeneID 81554) | 0.4 | 0.52 | 0.54 | 0.15 | inactive |
| IL7R (GeneID 3575) | 0.37 | 0.41 | 0.3 | 0.39 | inactive |
| RNF32 (GeneID 140545) | 0.8 | 0.7 | 0.93 | 0.76 | inactive |
| IL17B (GeneID 27190) | 1.08 | 1.06 | 1.08 | 1.09 | inactive |
| CALM2 (GeneID 805) | 0.17 | 0.01 | 0.32 | 0.19 | inactive |
| TCP10L3 (GeneID 6953) | 0.99 | 0.9 | 0.82 | 1.26 | inactive |
| EMILIN1 (GeneID 11117) | 1.03 | 1.11 | 0.83 | 1.14 | inactive |
| PDLIM2 (GeneID 64236) | 0.15 | 0.25 | -0.01 | 0.22 | inactive |
| ZNF296 (GeneID 162979) | 0.81 | 0.82 | 0.76 | 0.85 | inactive |
| CDV3 (GeneID 55573) | 1.17 | 1 | 1.04 | 1.46 | inactive |
| GPR119 (GeneID 139760) | -0.21 | 0.12 | -0.55 | -0.21 | inactive |
| KLHL11 (GeneID 55175) | -0.83 | -0.96 | -0.54 | -1 | inactive |
| SPIRE1 (GeneID 56907) | 1.24 | 1.04 | 1.29 | 1.4 | inactive |
| SKOR1 (GeneID 390598) | 0.51 | 0.7 | 0.12 | 0.71 | inactive |
| ZNF445 (GeneID 353274) | 0.74 | – | 0.56 | 0.93 | inactive |
| MED30 (GeneID 90390) | -1.29 | -1.47 | -1.59 | -0.82 | inactive |
| CALHM3 (GeneID 119395) | 1.19 | 1.7 | 0.98 | 0.91 | inactive |
| PSIP1 (GeneID 11168) | -0.73 | -0.86 | -0.82 | -0.51 | inactive |
| SPATA31D3 (GeneID 389762) | 1.79 | 1.47 | 2.08 | 1.82 | inactive |
| KCNH2 (GeneID 3757) | 0.71 | 0.88 | 0.68 | 0.58 | inactive |
| ARV1 (GeneID 64801) | 0.12 | 0.69 | -0.1 | -0.24 | inactive |
| KRTAP10-8 (GeneID 386681) | -1.7 | -1.65 | -1.51 | -1.94 | inactive |
| TIGD6 (GeneID 81789) | -1.05 | -0.86 | -1.16 | -1.12 | inactive |
| LINC00304 (GeneID 283860) | -2.25 | -1.97 | -2.31 | -2.47 | inactive |
| LOC387791 (retired record) (GeneID 387791) | -1.36 | -1.33 | -1.51 | -1.23 | inactive |
| PPP1R36 (GeneID 145376) | 0.2 | 0.08 | 0.31 | 0.21 | inactive |
| AK8 (GeneID 158067) | -0.13 | -0.07 | 0 | -0.32 | inactive |
| SAMD15 (GeneID 161394) | 0.84 | 0.76 | 0.79 | 0.98 | inactive |
| HSF4 (GeneID 3299) | -1 | -1.19 | -1.01 | -0.81 | inactive |
| PLA2G12B (GeneID 84647) | -0.1 | -0.01 | -0.02 | -0.27 | inactive |
| PIM1 (GeneID 5292) | -0.35 | -0.34 | -0.13 | -0.6 | inactive |
| TM4SF1 (GeneID 4071) | 0.81 | 0.7 | 0.58 | 1.16 | inactive |
| CRYZ (GeneID 1429) | -0.79 | -0.35 | -1.2 | -0.82 | inactive |
| RHOC (GeneID 389) | -0.41 | -0.37 | -0.58 | -0.29 | inactive |
| PLAC9 (GeneID 219348) | -0.92 | -0.86 | -0.92 | -0.98 | inactive |
| ZNF561 (GeneID 93134) | -1.32 | -1.43 | -1.07 | -1.47 | inactive |
| CPNE4 (GeneID 131034) | -0.63 | -1.02 | -0.53 | -0.34 | inactive |
| BBS7 (GeneID 55212) | 0.72 | 1.05 | 0.53 | 0.57 | inactive |
| ADGRE2 (GeneID 30817) | -0.48 | -0.6 | -0.55 | -0.3 | inactive |
| LGSN (GeneID 51557) | 2.23 | 2.12 | 2.18 | 2.4 | active |
| LAGE3 (GeneID 8270) | -1.63 | -1.6 | -1.7 | -1.58 | inactive |

Only “mean z-score” (9 entries from above):
EMILIN1 (GeneID 11117)	1.03
PDLIM2 (GeneID 64236)	0.15
ZNF296 (GeneID 162979)	0.81
CDV3 (GeneID 55573)	1.17
GPR119 (GeneID 139760)	-0.21
KLHL11 (GeneID 55175)	-0.83
SPIRE1 (GeneID 56907)	1.24
SKOR1 (GeneID 390598)	0.51
ZNF445 (GeneID 353274)	0.74

More reagents follow.
| gene symbol | mean z-score | z-score, replicate A | z-score, replicate B | z-score, replicate C | Outcome |
| --- | --- | --- | --- | --- | --- |
| DMXL2 (GeneID 23312) | 0.26 | -0.02 | 0.16 | 0.63 | inactive |
| DYNLT5 (GeneID 200132) | -0.66 | -0.56 | -0.53 | -0.89 | inactive |
| ARID3B (GeneID 10620) | 1.48 | 1.17 | 2.06 | 1.21 | inactive |
| DUX4L1 (GeneID 22947) | 2.21 | 2.36 | 2.24 | 2.03 | active |
| PCDHB5 (GeneID 26167) | -0.35 | -0.09 | -0.27 | -0.68 | inactive |
| STPG1 (GeneID 90529) | 1.4 | 1.16 | 1.26 | 1.78 | inactive |
| SLIRP-OT1 (GeneID 283579) | 1.65 | 1.54 | 2.17 | 1.24 | inactive |
| COA1 (GeneID 55744) | 0.65 | 0.56 | 0.64 | 0.74 | inactive |
| AEBP1 (GeneID 165) | -0.59 | -0.43 | -0.58 | -0.75 | inactive |
| MTCL1 (GeneID 23255) | -0.65 | -0.71 | -0.78 | -0.45 | inactive |
| LINC00923 (GeneID 91948) | -0.34 | -0.36 | -0.83 | 0.16 | inactive |
| ZBED4 (GeneID 9889) | -0.88 | -1.01 | -0.76 | -0.86 | inactive |
| C2CD4A (GeneID 145741) | 0.77 | 0.34 | 0.2 | 1.77 | inactive |
| HYAL3 (GeneID 8372) | 1.95 | 1.77 | 2.07 | 2.02 | inactive |
| ABCA6 (GeneID 23460) | -0.84 | -1.02 | -0.74 | -0.76 | inactive |
| MEAF6 (GeneID 64769) | 0.07 | 0.04 | -0.05 | 0.22 | inactive |
| PITPNM1 (GeneID 9600) | -1.27 | -1.27 | -1.32 | -1.24 | inactive |
| FAM78B (GeneID 149297) | 0.66 | 0.66 | 0.92 | 0.4 | inactive |
| NOD1 (GeneID 10392) | 0.06 | 0.29 | 0.18 | -0.29 | inactive |
| KCNAB1 (GeneID 7881) | 0.49 | 0.76 | 0.44 | 0.27 | inactive |
| SEMA3E (GeneID 9723) | 0.92 | 0.92 | 0.75 | 1.08 | inactive |
| PEX3 (GeneID 8504) | -0.65 | -0.46 | -0.56 | -0.94 | inactive |
| NTMT1 (GeneID 28989) | 0.8 | 0.86 | 0.86 | 0.69 | inactive |
| MTHFR (GeneID 4524) | -0.15 | -0.39 | -0.18 | 0.13 | inactive |
| HBB (GeneID 3043) | 0.19 | 0.12 | 0.18 | 0.28 | inactive |
| NR3C2 (GeneID 4306) | 0.55 | 0.49 | 0.7 | 0.46 | inactive |
| EIF2B1 (GeneID 1967) | -1.01 | -1.07 | -0.94 | -1.01 | inactive |
| OLR1 (GeneID 4973) | -0.1 | -0.04 | 0.04 | -0.3 | inactive |
| CTDP1 (GeneID 9150) | -0.11 | -0.26 | -0.03 | -0.04 | inactive |
